Measured values from several laboratories, pooled; numbers as filed in NIAID ChemDB.

Common to all: whole-cell or culture tests; species: Mycobacterium avium complex

Two numbers with a dash give a range or band. An empty or dashed field is not shown. Conditions beyond the fields shown may differ between rows. A number after MIC or MFC names an inhibition level or a share of isolates. ECn is the concentration giving n% inhibition of infection, replication or growth.

SMILES	method	measure	strain	value
CC[C@H]1OC(=O)C[C@@H](O)[C@H](C)[C@@H](O[C@@H]2O[C@H](C)[C@H](O)[C@H](N(C)C)[C@H]2O)[C@@H](CC=O)C[C@@H](C)C(=O)/C=C/C(C)=C/[C@@H]1COC(C)=O		MIC90	28 strains	≥64 µg/mL
CC[C@H]1OC(=O)[C@H](C)[C@@H](O[C@H]2C[C@@](C)(OC)[C@@H](OC(C)=O)[C@H](C)O2)[C@H](C)[C@@H](O[C@@H]2O[C@H](C)C[C@H](N(C)C)[C@H]2OC(=O)NN(C)C)C(C)(O)C[C@@H](C)/C(=N\OCCCC2CCCCC2)[C@H](C)[C@@H](O)[C@]1(C)O		MIC	20039 (clarithromycin-susceptible)	1.56 µg/mL
CC[C@H]1OC(=O)[C@H](C)[C@@H](O[C@H]2C[C@@](C)(OC)[C@@H](O)[C@H](C)O2)[C@H](C)[C@@H](O[C@@H]2O[C@H](C)C[C@H](N(C)C)[C@H]2O)[C@](C)(O)C[C@@H](C)CN(C)[C@H](C)[C@@H](O)[C@]1(C)O		Median MIC	20 isolates	8 µg/mL
NC[C@H]1O[C@H](O[C@H]2[C@H](O)[C@@H](O[C@H]3O[C@H](CO)[C@@H](O)[C@H](N)[C@H]3O)[C@H](N)C[C@@H]2N)[C@H](O)[C@@H](O)[C@@H]1O		MIC	CIPT 140310006	5 µg/mL
Cc1c(CNc2ccc3ccccc3c2)cnc2nc(N)nc(N)c12		MIC	NJ3404	≤0.13 µg/mL
NNC(=O)c1ccncc1		MIC	900	2 µg/mL
CN[C@@H]1[C@@H](O)C(O[C@@H]2[C@@H](O)[C@H](OC3O[C@H](CN)[C@@H](O)[C@H](O)[C@H]3O)[C@@H](N)C[C@H]2NC(=O)[C@@H](O)CN)OC[C@]1(C)O		MIC	J14	12.5 µg/mL
C[C@@H]1CN(c2c(F)c(N)c3c(=O)c(C(=O)O)cn(C4CC4)c3c2F)C[C@H](C)N1		MIC	N-945 (HIV+)	0.5 µg/mL
CC[C@H]1OC(=O)[C@H](C)[C@@H](O[C@H]2C[C@@](C)(OC)[C@@H](O)[C@H](C)O2)[C@H](C)[C@@H](O[C@@H]2O[C@H](C)C[C@H](N(C)C)[C@H]2O)[C@](C)(OC)C[C@@H](C)C(=O)[C@H](C)[C@@H](O)[C@]1(C)O		MIC	N-444	6.25 µg/mL
Cc1c(CNc2ccc3c(c2)Cc2ccccc2-3)cnc2nc(N)nc(N)c12		MIC	NJ168	≤0.13 µg/mL
CCCN(CCC)CC[C@H]1C[C@@H](C)C(=O)/C=C/C(C)=C/[C@H](COC2O[C@H](C)[C@@H](O)[C@@H](OC)[C@H]2OC)[C@@H](CC)OC(=O)C[C@@H](O)[C@H](C)[C@H]1O[C@@H]1O[C@H](C)[C@H](O)[C@H](N(C)C)[C@H]1O		MIC90	28 strains	≥64 µg/mL
CC(C)N=c1cc2n(-c3ccc(Cl)cc3)c3ccccc3nc-2cc1Nc1ccc(Cl)cc1		MIC	211	1 µg/mL
CCc1cc(C(N)=S)ccn1	agar	EC50	155 strains	>5 µg/mL
CCCCNC(=O)O[C@H]1C(O[C@@H]2[C@@H](C)[C@H](O[C@H]3C[C@@](C)(OC)[C@@H](OC(C)=O)[C@H](C)O3)[C@@H](C)C(=O)O[C@H](CC)[C@@](C)(O)[C@H](O)[C@@H](C)/C(=N/OCCCC3CCCCC3)[C@H](C)CC2(C)O)O[C@H](C)C[C@@H]1N(C)C		MIC	20096	0.1 µg/mL
CC[C@H]1OC(=O)[C@H](C)[C@@H](OC(=O)c2ccccc2)[C@H](C)[C@@H](O[C@@H]2O[C@H](C)C[C@H](N(C)C)[C@H]2O)C(C)(O)C[C@@H](C)/C(=N\OCCCOc2ccccc2)[C@H](C)[C@@H](O)[C@]1(C)O		MIC	20039 (clarithromycin-susceptible)	6.25 µg/mL
c1ccc(CSc2ncccn2)cc1		MIC	NJ211	>12.8 µg/mL
OC(c1cc(-c2ccc(Cl)cc2)nc2c1ccc1ccccc12)C1CCCCN1		MIC		1–2 µg/mL
Cc1c(CNc2ccc3ncccc3c2)cnc2nc(N)nc(N)c12		MIC	NJ3404	≤0.13 µg/mL
C[C@@H](O)[C@H]1C(=O)N2C(C(=O)O)=C(SCCN=CN)C[C@H]12		MIC	CIPT 140310012	>10 µg/mL
CCc1c(CNc2cc(C)ccc2OC)cnc2nc(N)nc(N)c12		MIC	NJ3404	≤0.13 µg/mL
CCCCCCCCO[C@@H]1O[C@H]([C@@H](COC)O[C@H]2O[C@H](COC(=O)c3ccccc3)[C@@H](OC(=O)c3ccccc3)[C@@H]2OC(=O)c2ccccc2)[C@H](OC)[C@H]1OC		MIC	NJ168	>128 µg/mL
CC[C@H]1OC(=O)[C@H](C)[C@@H](O[C@H]2C[C@@](C)(OC)[C@@H](O)[C@H](C)O2)[C@H](C)[C@@H](O[C@@H]2O[C@H](C)C[C@H](N(C)C)[C@H]2O)[C@](C)(OC)C[C@@H](C)C(=O)[C@H](C)[C@@H](O)[C@]1(C)O		MIC90	28 strains	8 µg/mL
CC[C@H]1OC(=O)[C@H](C)[C@@H](O[C@H]2C[C@@](C)(OC)[C@@H](OC(C)=O)[C@H](C)O2)[C@H](C)[C@@H](OC2O[C@H](C)C[C@H](N(C)C)[C@H]2OC(N)=O)C(C)(O)C[C@@H](C)/C(=N\OCCCC2CCCCC2)[C@H](C)[C@@H](O)[C@]1(C)O		MIC	20092	>50 µg/mL
CO[C@H]1/C=C/O[C@@]2(C)Oc3c(C)c(O)c4c(O)c(c5c(c4c3C2=O)NC2(CCN(CC(C)C)CC2)N=5)=NC(=O)/C(C)=C\C=C\[C@H](C)[C@H](O)[C@@H](C)[C@@H](O)[C@@H](C)[C@H](OC(C)=O)[C@@H]1C		MIC	N-962 (HIV+)	0.0625 µg/mL
CCN=c1cc2n(-c3ccc(Cl)cc3)c3ccccc3nc-2cc1Nc1ccc(Cl)cc1		MBC	211	64 µg/mL
CC/C=C/CCNC(=O)O[C@H]1C(O[C@@H]2[C@@H](C)[C@H](O[C@H]3C[C@@](C)(OC)[C@@H](OC(C)=O)[C@H](C)O3)[C@@H](C)C(=O)O[C@H](CC)[C@@](C)(O)[C@H](O)[C@@H](C)/C(=N/OCCCC3CCCCC3)[C@H](C)CC2(C)O)O[C@H](C)C[C@@H]1N(C)C		MIC	20096	0.2 µg/mL
CC[C@H]1OC(=O)[C@H](C)[C@@H](O[C@H]2C[C@@](C)(OC)[C@@H](OC(C)=O)[C@H](C)O2)[C@H](C)[C@@H](O[C@@H]2O[C@H](C)C[C@H](N(C)C)[C@H]2OC(=O)NN)C(C)(O)C[C@@H](C)/C(=N\OCCCC2CCCCC2)[C@H](C)[C@@H](O)[C@]1(C)O		MIC	20092 (clarithromycin-resistant)	6.25 µg/mL
CC[C@H]1OC(=O)[C@H](C)[C@@H](O[C@H]2C[C@@](C)(OC)[C@@H](O)[C@H](C)O2)[C@H](C)[C@@H](O[C@@H]2O[C@H](C)C[C@H](N(C)C)[C@H]2O)[C@](C)(O)C[C@@H](C)/C(=N\OCOCCOC)[C@H](C)[C@@H](O)[C@]1(C)O		MIC90	28 strains	16 µg/mL
Cc1cccc(CSc2nc(=O)[nH]c3nc[nH]c23)c1		MIC	NJ211	>12.8 µg/mL
C[C@@H]1CN(c2c(F)c(N)c3c(=O)c(C(=O)O)cn(C4CC4)c3c2F)C[C@H](C)N1		MBC	Isolate 90-1257	1 µg/mL
CCC(=O)O[C@H]1[C@H](C)[C@@H](O[C@@H]2O[C@H](C)C[C@H](N(C)C)[C@H]2O)C(C)(O)C[C@@H](C)/C(=N\OCCCOc2ccccc2)[C@H](C)[C@@H](O)[C@](C)(O)[C@@H](CC)OC(=O)[C@@H]1C		MIC	20092 (clarithromycin-resistant)	25 µg/mL
COc1cc(NCc2cnc3nc(N)nc(N)c3c2C)cc(OC)c1OC		MIC	NJ168	≤0.13 µg/mL
COc1cccc(Sc2ncccn2)c1		MIC	NJ211	>12.8 µg/mL
C[C@@H]1CN(c2c(F)c(N)c3c(=O)c(C(=O)O)cn(C4CC4)c3c2F)C[C@H](C)N1		MIC90		6.25 µg/mL
NC[C@@H]1O[C@H](O[C@H]2[C@@H](O)[C@H](O[C@@H]3[C@@H](O)[C@H](N)C[C@H](N)[C@H]3O[C@H]3O[C@H](CN)[C@@H](O)[C@H](O)[C@H]3N)O[C@@H]2CO)[C@H](N)[C@@H](O)[C@@H]1O		MIC90	25 isolates	>64 µg/mL
CCCCCNC(=O)O[C@H]1C(O[C@@H]2[C@@H](C)[C@H](O[C@H]3C[C@@](C)(OC)[C@@H](OC(C)=O)[C@H](C)O3)[C@@H](C)C(=O)O[C@H](CC)[C@@](C)(O)[C@H](O)[C@@H](C)/C(=N/OCCCC3CCCCC3)[C@H](C)CC2(C)O)O[C@H](C)C[C@@H]1N(C)C		MIC	20092	0.1 µg/mL
CO[C@H]1/C=C/O[C@@]2(C)Oc3c(C)c(O)c4c(=O)c(c5oc6cc(N7CCN(CC(C)C)CC7)cc(=O)c6nc5c4c3=C2O)NC(=O)/C(C)=C\C=C\[C@H](C)[C@H](O)[C@@H](C)[C@@H](O)[C@@H](C)[C@H](OC(C)=O)[C@@H]1C		MIC	N-951 (HIV+)	0.0313 µg/mL
NCC[C@H](O)C(=O)N[C@@H]1C[C@H](N)[C@@H](O[C@H]2O[C@H](CN)[C@@H](O)[C@H](O)[C@H]2O)[C@H](O)[C@H]1O[C@H]1O[C@H](CO)[C@@H](O)[C@H](N)[C@H]1O		MBC90	25 isolates	64 µg/mL
Cc1ccc(Sc2ccncc2)cc1		MIC	NJ211	>12.8 µg/mL
N[C@@H]1CONC1=O	agar	EC50	713 strains	>30 µg/mL
Cc1ccc(CSc2ncccn2)cc1		MIC	NJ211	>12.8 µg/mL
NC[C@H]1O[C@H](O[C@H]2[C@H](O)[C@@H](O[C@H]3O[C@H](CO)[C@@H](O)[C@H](N)[C@H]3O)[C@H](N)C[C@@H]2N)[C@H](O)[C@@H](O)[C@@H]1O		MBC	ATCC 35718	16 µg/mL
CC[C@H]1OC(=O)[C@H](C)[C@@H](O[C@H]2C[C@@](C)(OC)[C@@H](OC(C)=O)[C@H](C)O2)[C@H](C)[C@@H](OC2O[C@H](C)C[C@H](N(C)C)[C@H]2OC(=O)NCC(=O)NC)C(C)(O)C[C@@H](C)/C(=N\OCCCC2CCCCC2)[C@H](C)[C@@H](O)[C@]1(C)O		MIC	20045	0.78 µg/mL
CC(C)(C)c1ccc(CSc2nc(=O)[nH]c3nc[nH]c23)cc1		MIC	NJ211	>12.8 µg/mL
CCCCCCCCO[C@@H]1O[C@H]([C@@H](COC)O[C@H]2O[C@H](CO)[C@@H](O)[C@@H]2O)[C@H](OC)[C@H]1OC		MIC	NJ168	>128 µg/mL
CC1(C)S[C@@H]2[C@H](NC(=O)[C@H](C(=O)[O-])c3ccsc3)C(=O)N2[C@H]1C(=O)[O-].[Na+].[Na+]		MIC	CIPT 140310002	50 µg/mL
CC[C@H]1OC(=O)[C@H](C)[C@@H](O[C@H]2C[C@@](C)(OC)[C@@H](O)[C@H](C)O2)[C@H](C)[C@@H](O[C@@H]2O[C@H](C)C[C@H](N(C)C)[C@H]2O)[C@](C)(OC)C[C@@H](C)C(=O)[C@H](C)[C@@H](O)[C@]1(C)O		MIC90	20 strains	4 µg/mL
Clc1nc(Sc2ccccn2)c2[nH]cnc2n1		MIC	NJ211	>12.8 µg/mL
CCCCN(CCCC)CCC(O)c1cc2c(Cl)cc(Cl)cc2c2cc(C(F)(F)F)ccc12		MIC		4 µg/mL
Cc1ccc(F)c(NCc2cnc3nc(N)nc(N)c3c2C)c1.O		MIC	NJ168	≤0.13 µg/mL
CCNC(=O)[C@@H](NC(=O)Cc1ccccc1)[C@@H]1N[C@@H](C(=O)NCCNC(=O)[C@@H]2N[C@@H]([C@H](NC(=O)Cc3ccccc3)C(=O)NCC)SC2(C)C)C(C)(C)S1		MIC	CIPT 140310002	25 µg/mL

Repeating the final 6 entries:

SMILES	method	measure	strain	value
CC1(C)S[C@@H]2[C@H](NC(=O)[C@H](C(=O)[O-])c3ccsc3)C(=O)N2[C@H]1C(=O)[O-].[Na+].[Na+]		MIC	CIPT 140310002	50 µg/mL
CC[C@H]1OC(=O)[C@H](C)[C@@H](O[C@H]2C[C@@](C)(OC)[C@@H](O)[C@H](C)O2)[C@H](C)[C@@H](O[C@@H]2O[C@H](C)C[C@H](N(C)C)[C@H]2O)[C@](C)(OC)C[C@@H](C)C(=O)[C@H](C)[C@@H](O)[C@]1(C)O		MIC90	20 strains	4 µg/mL
Clc1nc(Sc2ccccn2)c2[nH]cnc2n1		MIC	NJ211	>12.8 µg/mL
CCCCN(CCCC)CCC(O)c1cc2c(Cl)cc(Cl)cc2c2cc(C(F)(F)F)ccc12		MIC		4 µg/mL
Cc1ccc(F)c(NCc2cnc3nc(N)nc(N)c3c2C)c1.O		MIC	NJ168	≤0.13 µg/mL
CCNC(=O)[C@@H](NC(=O)Cc1ccccc1)[C@@H]1N[C@@H](C(=O)NCCNC(=O)[C@@H]2N[C@@H]([C@H](NC(=O)Cc3ccccc3)C(=O)NCC)SC2(C)C)C(C)(C)S1		MIC	CIPT 140310002	25 µg/mL